Results of unrelated studies side by side (data: NIAID ChemDB).

All rows: growth or infection tests; organism: Mycobacterium fortuitum

A number after MIC or MFC names an inhibition level or a share of isolates.

structure	strain	endpoint	read by	value
N/C(=N\N=C\c1ccc(Cl)c(Cl)c1)c1ccccn1		MIC		256 µg/mL
NC(=O)c1ncc(C(N)=S)nc1Nc1cccc(O)c1	1021	MIC		50 µg/mL
C[C@@H]1CN(c2c(F)c(N)c3c(=O)c(C(=O)O)cn(C4CC4)c3c2F)C[C@H](C)N1	20 strains	MIC90		1.56 µg/mL
CCN(CC)c1nc(C(N)=S)cnc1C(N)=O	1021	MIC		>100 µg/mL
Cc1noc2nc(C)n(/N=C/c3ccc(Cl)cc3)c(=O)c12	PCM 672	MIC90	resazurin	>100 µg/mL
CCCN(CCC)c1nc(C(N)=S)cnc1C(N)=O	1021	MIC		>100 µg/mL
N#Cc1cnc(C(N)=O)c(Nc2ccc(O)cc2)n1	1021	MIC		>100 µg/mL
CCCCCCCC/C=N/NC(=O)c1cnc2cc(F)ccc2c1NC(CSc1ccccc1)CC(=O)N(C)C	ATCC 19542	MIC	resazurin	5 µg/mL
N#Cc1cnc(C(N)=O)c(Nc2ccc(Cl)cc2)n1	1021	MIC		>100 µg/mL
Cc1noc2ncn(/N=C/c3ccccc3)c(=O)c12	PCM 672	MIC90	resazurin	>100 µg/mL
CCn1cc(C(=O)O)c(=O)c2cc(F)c(-c3csc(N4CCCCC4)n3)cc21		MIC		3.12 µg/mL
N/C(=N/N=C/c1ccccc1Br)c1ccccn1		MIC		256 µg/mL
C[C@@H]1CN(c2c(F)c(N)c3c(=O)c(C(=O)O)cn(C4CC4)c3c2F)C[C@H](C)N1	25 isolates	MIC50		0.5 µg/mL
CO[C@@]1(NC(=O)CCCC(N)C(=O)O)C(=O)N2C(C(=O)O)=C(COC(N)=O)CSC21	1260	MIC		>100 µg/mL
Cc1noc(N)c1C(=O)N/N=C/c1ccc(Cl)cc1	PCM 672	MIC90	resazurin	>100 µg/mL
C[C@@H](O)[C@H]1C(=O)N2C(C(=O)O)=C(SCCN=CN)C[C@H]12	1004-8	MIC		6.25 µg/mL
Cc1ccc(/C=N/n2cnc3onc(C)c3c2=O)cc1	PCM 672	MIC90	resazurin	>100 µg/mL
NC[C@H]1O[C@H](O[C@H]2[C@H](O)[C@@H](O[C@H]3O[C@H](CO)[C@@H](O)[C@H](N)[C@H]3O)[C@H](N)C[C@@H]2N)[C@H](O)[C@@H](O)[C@@H]1O	31 isolates	MIC50		64 µg/mL
COc1ccc(/C=N/NC(=O)c2cnc3cc(F)ccc3c2NC(CSc2ccccc2)CC(=O)N(C)C)c(F)c1	ATCC 19542	MIC	resazurin	>100 µg/mL
CCn1cc(C(=O)O)c(=O)c2ccc(-c3csc(-c4ccncc4)n3)cc21		MIC		1.6 µg/mL
CN[C@@H]1[C@H](O[C@H]2[C@H](O[C@H]3[C@H](O)[C@@H](O)[C@H](N=C(N)N)[C@@H](O)[C@@H]3N=C(N)N)O[C@@H](C)[C@]2(O)C=O)O[C@@H](CO)[C@H](O)[C@H]1O	ATCC 6841	MBC		>64 µg/mL
CO[C@@]1(NC(=O)CCCC(N)C(=O)O)C(=O)N2C(C(=O)O)=C(COC(C)=O)CSC21	1263	MIC		>100 µg/mL
COc1ccc(OC)c(/C=N/N=C(\N)c2ccccn2)c1		MIC		256 µg/mL
CC1CN(c2cc3c(cc2F)c(=O)c(C(=O)O)cn3-c2ccc(F)cc2F)CCN1	25 isolates	MIC50		2 µg/mL
N/C(=N/N=C/c1ccccc1)c1ccccn1		MIC		256 µg/mL
CN(C)C(=O)CC(CSc1ccccc1)Nc1c(C(=O)N/N=C/c2cc(F)ccc2O)cnc2cc(F)ccc12	ATCC 19542	MIC	resazurin	>100 µg/mL
CCc1cc(C(N)=S)ccn1	18 strains	MIC90		≥64 µg/mL
Cc1ccc(Nc2nc(C#N)cnc2C(N)=O)cc1[N+](=O)[O-]	1021	MIC		>100 µg/mL
CCCCCCCC/C=N/NC(=O)c1cnc2cccc(C(F)(F)F)c2c1NC(CSc1ccccc1)CC(=O)N(C)C	ATCC 19542	MIC	resazurin	5 µg/mL
CCn1cc(C(=O)O)c(=O)c2ccc(C3CSCN3C)cc21		MIC		>100 µg/mL
Cc1noc2nc(C)n(/N=C/c3ccc(Cl)cc3Cl)c(=O)c12	PCM 672	MIC90	resazurin	>100 µg/mL
NC(=O)c1ncc(C(N)=S)nc1N1CCCCC1	1021	MIC		>100 µg/mL
CC1COc2c(N3CCN(C)CC3)c(F)cc3c(=O)c(C(=O)O)cn1c23	18367	MIC90		6.25 µg/mL
C[C@H]1COc2c(N3CCN(C)CC3)c(F)cc3c(=O)c(C(=O)O)cn1c23	25 isolates	MBC90		4 µg/mL
Clc1ccc2c(c1)nc1cc(Nc3ccccc3)c(=NC3CCCCC3)cc-1n2-c1ccccc1	9738	MIC		5 µg/mL
NCC[C@H](O)C(=O)N[C@@H]1C[C@H](N)[C@@H](O[C@H]2O[C@H](CN)[C@@H](O)[C@H](O)[C@H]2O)[C@H](O)[C@H]1O[C@H]1O[C@H](CO)[C@@H](O)[C@H](N)[C@H]1O		MIC90	broth dilution	≤2 µg/mL
N#Cc1cnc(C(N)=O)c(Nc2ccccc2)n1	1021	MIC		>100 µg/mL
N#Cc1ccc(/C=N/N=C(\N)c2ccccn2)cc1		MIC		256 µg/mL
C/C=C/Nc1nc(C(N)=S)cnc1C(N)=O	1021	MIC		>100 µg/mL
CC[C@H]1OC(=O)[C@H](C)[C@@H](O[C@H]2C[C@@](C)(OC)[C@@H](O)[C@H](C)O2)[C@H](C)[C@@H](O[C@@H]2O[C@H](C)C[C@H](N(C)C)[C@H]2O)[C@](C)(O)C[C@@H](C)CN(C)[C@H](C)[C@@H](O)[C@]1(C)O	25 isolates	MIC90		>8 µg/mL
CCn1cc(C(=O)O)c(=O)c2cc(F)c(-c3csc(C)n3)cc21		MIC		25 µg/mL
CC(C)N=c1cc2n(-c3ccc(Cl)cc3)c3ccccc3nc-2cc1Nc1ccc(Cl)cc1		MIC90	fluorescence	0.276 µg/mL
NC1CCN(c2c(F)cc3c(=O)c(C(=O)O)cn(C4CC4)c3c2Cl)C1	ATCC 6841	MBC		0.5 µg/mL
CC1COc2c(N3CCN(C)CC3)c(F)cc3c(=O)c(C(=O)O)cn1c23	NCTC 10394	MBC		4 µg/mL
CO[C@@]1(NC(=O)C(C(=O)O)c2ccc(O)cc2)C(=O)N2C(C(=O)O)=C(CSc3nnnn3C)CO[C@@H]21	4-May	MIC		50 µg/mL
C=CCN(CC=C)c1nc(C(N)=S)cnc1C(N)=O	1021	MIC		>100 µg/mL

7 of the rows above, restated:

structure,strain,endpoint,read by,value
Cc1noc2nc(C)n(/N=C/c3ccc(Cl)cc3Cl)c(=O)c12,PCM 672,MIC90,resazurin,>100 µg/mL
CO[C@@]1(NC(=O)CCCC(N)C(=O)O)C(=O)N2C(C(=O)O)=C(COC(C)=O)CSC21,1263,MIC,,>100 µg/mL
NC(=O)c1ncc(C(N)=S)nc1N1CCCCC1,1021,MIC,,>100 µg/mL
CCCN(CCC)c1nc(C(N)=S)cnc1C(N)=O,1021,MIC,,>100 µg/mL
CO[C@@]1(NC(=O)C(C(=O)O)c2ccc(O)cc2)C(=O)N2C(C(=O)O)=C(CSc3nnnn3C)CO[C@@H]21,4-May,MIC,,50 µg/mL
NCC[C@H](O)C(=O)N[C@@H]1C[C@H](N)[C@@H](O[C@H]2O[C@H](CN)[C@@H](O)[C@H](O)[C@H]2O)[C@H](O)[C@H]1O[C@H]1O[C@H](CO)[C@@H](O)[C@H](N)[C@H]1O,,MIC90,broth dilution,≤2 µg/mL
CN(C)C(=O)CC(CSc1ccccc1)Nc1c(C(=O)N/N=C/c2cc(F)ccc2O)cnc2cc(F)ccc12,ATCC 19542,MIC,resazurin,>100 µg/mL

Rows are shuffled and stem from different studies. An empty or dashed field is not shown.